Compound potency records, mixed from different reports. Data source: NIAID ChemDB in PubChem.

All rows: growth or infection tests; organism: HIV-1

ECn: concentration that inhibits the pathogen or its effect by n%. An empty or dashed field is not shown. Two numbers with a dash give a range or band. Rows are shuffled and stem from different studies.

SMILES	strain	read by	measure	conditions	mutations	cells	value
Cc1nc(C)c(C(=O)NC(C)(C)C(=O)N[C@@]23CC[C@]4(C)[C@H](CC[C@@H]5[C@@]6(C)CC[C@H](OC(=O)C7C[C@@H](C(=O)O)C7(C)C)C(C)(C)[C@@H]6CC[C@]54C)C2=C(C(C)C)C(=O)C3)s1	NL4-3	p24	EC50			MT-4	<0.005 µM
COc1cccc(F)c1C1SCC(=O)N1c1nccc(C)n1	IIIB	syncytia	EC50			CEM	0.469 µM
OC[C@H]1O[C@@H]2O[C@H]3[C@H](O)[C@@H](O)[C@@H](O[C@H]4[C@H](O)[C@@H](O)[C@@H](O[C@H]5[C@H](O)[C@@H](O)[C@@H](O[C@H]6[C@H](O)[C@@H](O)[C@@H](O[C@H]7[C@H](O)[C@@H](O)[C@@H](O[C@H]8[C@H](O)[C@@H](O)[C@@H](O[C@H]1[C@H](O)[C@H]2O)O[C@@H]8CO)O[C@@H]7CO)O[C@@H]6CO)O[C@@H]5CO)O[C@@H]4CO)O[C@@H]3CO	IIIB	syncytia	EC50			SupT1 + Sup-T1	>2500 µM
Cc1cc(C(Cl)c2ccc(C(C)(C)C)cc2)nc(Nc2ccc(C#N)cc2)n1	IIIB	cytopathic effect	EC50			MT-4	0.435 µM
CC(=O)N1C2CCC(C2)N2C(=O)c3c(O)c(=O)c(C(=O)NCc4ccc(F)cc4F)cn3CC12	NL4-3	GFP	EC50	100% human serum		MT-4	0.043 µM
c1ccc(C2SCc3nc4ccccc4n32)cc1	IIIB	cytopathic effect	EC50			MT-4	0.35 µM
Cc1nc(C)c(C(=O)NC(C)(C)CNC[C@H](O)[C@@]23CC[C@]4(C)[C@H](CC[C@@H]5[C@@]6(C)CC[C@H](OC(=O)[C@H]7C[C@@H](C(=O)O)C7(C)C)C(C)(C)[C@@H]6CC[C@]54C)C2=C(C(C)C)C(=O)C3)s1	92HT599	p24 / ELISA	EC50			MT-2	<1 µM
O=C1c2c(O)c(O)cc(S(=O)(=O)NCCCCNS(=O)(=O)c3cc(O)c(O)c4c3CN(Cc3ccc(F)c(Cl)c3)C4=O)c2CN1Cc1ccc(F)c(Cl)c1			EC50				4.9 µM
[N-]=[N+]=N[C@H]1C[C@H](n2cc(Br)cnc2=O)O[C@@H]1CO			EC50			CEM-V + CEM	>94 µM
COc1cccc(F)c1C1SCC(=O)N1c1cc(C)ccn1	IIIB	cytopathic effect	EC50			MT-4	0.879 µM
Cc1ccc(C(=O)NC2(C(=O)N[C@@]34CC[C@]5(C)[C@H](CC[C@@H]6[C@@]7(C)CC[C@H](OC(=O)C8C[C@@H](C(=O)O)C8(C)C)C(C)(C)[C@@H]7CC[C@]65C)C3=C(C(C)C)C(=O)C4)CCCC2)cn1	NL4-3	p24	EC50		V7A	MT-4	<0.01 µM
COc1cccc(F)c1C1SCC(=O)N1c1cccc(C)c1	IIIB	syncytia	EC50			CEM	3.25 µM
COc1ncc(OC)c2c(C(=O)C(=O)N3CCN(C(=O)c4ccccc4)CC3)c[nH]c12	IIIB	RT activity	EC50			MT-2	0.16 µM
Nc1nc(N)c2ncn(CC3(CO)CC3CO)c2n1	RF	cytopathic effect / MTT	EC50			CEM	>100 µg/mL
COc1cccc(OC)c1C1SCC(=O)N1c1cc(C)cc(C)n1	IIIB	cytopathic effect	EC50			MT-4	1.13 µM
C[C@@]1(O)[C@H](O)[C@@H](CO)O[C@H]1n1ccc(N)nc1=O	LAI	RT activity	EC90			PBMC	>100 µM
O=C1CSC(c2c(Cl)cccc2Cl)N1Cc1ccco1	IIIB	cytopathic effect	EC50			MT-4	0.204 µM
Cc1cnc(Nc2ccc(C#N)cc2)nc1C(Cl)c1ccc(Br)cc1	IIIB	cytopathic effect	EC50		K103N + Y181C	MT-4	10.3 µM
C[C@@]1(O)[C@H](O)[C@@H](CO)O[C@H]1n1cnc2c(N)nc(Cl)nc21	LAI	ELISA	EC90				>100 µM
C=C(C)[C@@H]1CC[C@]2(C(=O)NCCCCCCCC(=O)N[C@@H](CC(C)C)[C@@H](O)CC(=O)O)CC[C@]3(C)[C@H](CC[C@@H]4[C@@]5(C)CC[C@H](O)C(C)(C)[C@@H]5CC[C@]43C)[C@@H]12	NDK	cytopathic effect / MTT	EC50			CEM	>1 µM
Cc1cccnc1C(=O)NC(C)(C)C(=O)N[C@@]12CC[C@]3(C)[C@H](CC[C@@H]4[C@@]5(C)CC[C@H](OC(=O)C6C[C@@H](C(=O)O)C6(C)C)C(C)(C)[C@@H]5CC[C@]43C)C1=C(C(C)C)C(=O)C2	NL4-3	p24	EC50		V7A	MT-4	0.01001–0.05 µM
COc1cccc(OC)c1C1SCC(=O)N1c1cc(C)ccn1	IIIB	cytopathic effect	EC50			MT-4	3.33 µM
CC(C)C1=C2C(CC[C@]3(C)[C@@H]2CC[C@@H]2[C@@]4(C)CC[C@H](OC(=O)[C@H]5C[C@@H](C(=O)O)C5(C)C)C(C)(C)[C@@H]4CC[C@]23C)[C@H](NC(=O)C(C)(C)C(=O)N2CCN(C)CC2)C1=O	92HT599	p24 / ELISA	EC50			MT-2	<0.01 µM
C[C@@]1(O)[C@H](O)[C@@H](CO)O[C@H]1n1cnc(C(=O)NN)c1/C(N)=N/N	LAI	ELISA	EC90				>100 µM
CCCCCCCCCC[N+](C)(C)CCCNCc1c(O)cc2c(c1O)-c1cc(ccc1O)[C@H]1NC(=O)[C@@H]3NC(=O)C4NC(=O)[C@@H](Cc5ccc(c(Cl)c5)Oc5cc3cc(c5O)Oc3ccc(cc3Cl)[C@@H](O)[C@H](NC1=O)C(=O)N[C@@H]2C(=O)O)NC(=O)[C@H](N)c1ccc(O)c(c1)Oc1cc(O)cc4c1		syncytia	EC50		RT-K103N	CEM	6 µM
CC(C)C1=C2[C@H]3CC[C@@H]4[C@@]5(C)CC[C@H](OC(=O)C6C[C@@H](C(=O)O)C6(C)C)C(C)(C)[C@@H]5CC[C@@]4(C)[C@]3(C)CC[C@@]2(NC(=O)C(C)(C)NC(=O)Cc2ccc(Cl)cc2)CC1=O	NL4-3	p24	EC50		V7A	MT-4	<0.01 µM
COc1ccccc1NC(=O)c1ccccc1S(=O)(=O)c1ccc([N+](=O)[O-])cc1.C[N+](C)(C)CCO	LAI		EC50			MT-4	>50 µM
CC[n+]1c(-c2ccccc2)c2cc(NC(N)=O)ccc2c2ccc(NC(N)=O)cc21			EC50			HeLa	1.5 µM
CC(C)C1=C2[C@H]3CC[C@@H]4[C@@]5(C)CC[C@H](OC(=O)C6C[C@@H](C(=O)O)C6(C)C)C(C)(C)[C@@H]5CC[C@@]4(C)[C@]3(C)CC[C@@]2(NC(=O)C2(NC(=O)c3ccc(Cl)cc3)CCC2)CC1=O	NL4-3	p24	EC50			MT-4	0.00501–0.01 µM
COc1nc(Cl)nc2c1ncn2[C@@H]1O[C@H](CO)[C@H]2CC=CC[C@H]21	LAI		EC50			CEM	>100 µM
CC(C)C1=C2C(CC[C@]3(C)[C@@H]2CC[C@@H]2[C@@]4(C)CC[C@H](OC(=O)[C@H]5C[C@@H](C(=O)O)C5(C)C)C(C)(C)[C@@H]4CC[C@]23C)[C@H](NC(=O)C(C)(C)C(=O)NC2CCCCC2)C1=O	92HT599	p24 / ELISA	EC50			MT-2	<0.01 µM
Cc1cn([C@@H]2O[C@H](CO)C3(OS(=O)(=O)C=C3N)[C@H]2O)c(=O)[nH]c1=O	IIIB	cytopathic effect / trypan blue	EC50			MT-4	>100 µg/mL
O=c1[nH]c(=O)n(C[C@@H]2O[C@H](CO)[C@H]3CC=CC[C@H]32)cc1F	LAI		EC50			CEM	>100 µM
COc1cccc(F)c1C1SCC(=O)N1c1cccc(C)n1	IIIB	cytopathic effect	EC50			MT-4	0.288 µM
COc1ccccc1NC(=O)c1cccnc1Sc1ccc([N+](=O)[O-])cc1	LAI		EC50			MT-4	>50 µM
O=c1[nH]cnc2c1ncn2[C@@H]1O[C@H](CO)[C@H]2CC=CC[C@H]21	LAI		EC50			CEM	20.1 µM
CC(C)C1=C2[C@H]3CC[C@@H]4[C@@]5(C)CC[C@H](OC(=O)[C@H]6C[C@@H](C(=O)O)C6(C)C)C(C)(C)[C@@H]5CC[C@@]4(C)[C@]3(C)CC[C@@]2(CCNC[C@@H](N)C(C)C)CC1=O	92HT599	p24 / ELISA	EC50			MT-2	<1 µM
Cc1cc(C)nc(N2C(=O)CSC2c2c(C(F)(F)F)ccc(Cl)c2F)c1	IIIB	syncytia	EC50			CEM	5.92 µM
N#Cc1ccc(Nc2nccc(C(Cl)c3ccc(Br)cc3)n2)cc1	IIIB	cytopathic effect	EC50		K103N + Y181C	MT-4	32.5 µM
CC(C)C1=C2[C@H]3CC[C@@H]4[C@@]5(C)CC[C@H](OC(=O)C6C[C@@H](C(=O)O)C6(C)C)C(C)(C)[C@@H]5CC[C@@]4(C)[C@]3(C)CC[C@@]2(NC(=O)C(C)(C)NC(=O)c2cnccn2)CC1=O	NL4-3	p24	EC50			MT-4	<0.005 µM
Cc1cccc(C)c1C1SCC(=O)N1Cc1ccco1	IIIB	cytopathic effect	EC50			MT-4	7.8 µM
CCOC(=O)[C@H](C)NP(=O)(OC[C@H]1O[C@@H](n2cnc3c(C)nc(N)nc32)[C@](C)(O)[C@@H]1O)Oc1ccccc1	LAI	ELISA	EC90				>100 µM
CCNC(=O)NC(=O)C(C)OC(=O)c1c2c(nc3ccccc13)/C(=C\c1cccc(OC)c1OC)CC2		luciferase	EC50	pseudotyped		CEM	2 µM
C[C@@]1(O)[C@H](O)[C@@H](CO)O[C@H]1n1cnc2c(N)n[nH]c(=O)c21	LAI	ELISA	EC90				>100 µM
Cc1cccc(C)c1C1SCC(=O)N1c1cccc(Br)n1	IIIB	cytopathic effect	EC50			MT-4	6.33 µM
O=C1c2c(O)c(O)cc(S(=O)(=O)NCCCCCNS(=O)(=O)c3cc(O)c(O)c4c3CN(Cc3ccc(F)c(Cl)c3)C4=O)c2CN1Cc1ccc(F)c(Cl)c1			EC50				5.3 µM
COc1ccccc1NC(=O)c1ccccc1Sc1ccc(C(=O)O)cc1.C[N+](C)(C)CO	LAI		EC50			MT-4	>50 µM
CC(C)C1=C2[C@H]3CC[C@@H]4[C@@]5(C)CC[C@H](OC(=O)[C@H]6C[C@@H](C(=O)O)C6(C)C)C(C)(C)[C@@H]5CC[C@@]4(C)[C@]3(C)CC[C@@]2([C@@H](O)CNCc2ccc(CN3CCN(C)CC3)cc2)CC1=O	92HT599	p24 / ELISA	EC50			MT-2	<1 µM
CC(C)C1=C2C(CC[C@]3(C)[C@@H]2CC[C@@H]2[C@@]4(C)CC[C@H](OC(=O)[C@H]5C[C@@H](C(=O)O)C5(C)C)C(C)(C)[C@@H]4CC[C@]23C)[C@H](NC(=O)C(C)(C)C(=O)NC2CC2)C1=O	92HT599	p24 / ELISA	EC50			MT-2	<0.01 µM
CC(C)C1=C2[C@H]3CC[C@@H]4[C@@]5(C)CC[C@H](OC(=O)[C@H]6C[C@@H](C(=O)O)C6(C)C)C(C)(C)[C@@H]5CC[C@@]4(C)[C@]3(C)CC[C@@]2([C@@H](O)CNCC2(NC(=O)c3ccc(Cl)cc3)COC2)CC1=O	92HT599	p24 / ELISA	EC50			MT-2	<1 µM
CCN1c2ncc(CCOc3ccc(-c4ccc(CC(=O)O)cc4)cc3C)cc2-c2nccn2-c2cccnc21		p24	EC50			C8166	<0.01 µM
O=C(Nc1ccccc1I)c1ccccc1Sc1ccc([N+](=O)[O-])cc1	LAI		EC50			MT-4	>50 µM
O=C1CSC(c2c(F)cccc2F)N1Cc1ccco1	IIIB	cytopathic effect	EC50			MT-4	2.88 µM
CCN1c2ncc(CCOc3cccc4c3CNC4=O)cc2-c2ncc(C)n2-c2cccnc21		p24	EC50			C8166	<0.01 µM
CC(C)C1=C2[C@H]3CC[C@@H]4[C@@]5(C)CC[C@H](OC(=O)[C@H]6C[C@@H](C(=O)O)C6(C)C)C(C)(C)[C@@H]5CC[C@@]4(C)[C@]3(C)CC[C@@]2(CC(=O)NCc2ccc(CN3CCC(O)CC3)cc2)CC1=O	92HT599	p24 / ELISA	EC50			MT-2	<1 µM
CC(C)CNC(=O)NC(=O)C(C)OC(=O)c1c2c(nc3ccccc13)/C(=C\c1cccc([N+](=O)[O-])c1)CCC2		luciferase	EC50	pseudotyped		CEM	>10 µM
CC(C)C1=C2[C@H]3CC[C@@H]4[C@@]5(C)CC[C@H](OC(=O)[C@H]6C[C@@H](C(=O)O)C6(C)C)C(C)(C)[C@@H]5CC[C@@]4(C)[C@]3(C)CC[C@@]2(CC(=O)NCC(C)(C)NC(=O)c2ccc(N3CCN(C)CC3)cc2)CC1=O	92HT599	p24 / ELISA	EC50			MT-2	<1 µM
COc1cc2[nH]c3ccccc3c2cc1C=O		syncytia	EC50			1A2	12 µM
Nc1ncnc2c1ncn2[C@H]1C[C@@H](O)[C@H](O)[C@@H]1O	IIIB		EC50			CEM	>4 µM
Cc1cn(CC2(CO)CC2CO)c(=O)[nH]c1=O	RF	cytopathic effect / MTT	EC50			CEM	3.2 µg/mL
CCN1c2ncc(CCOc3cccc4c3CS(=O)(=O)N4CC(=O)O)cc2-c2nccn2-c2c(C)ccnc21		p24	EC50			C8166	>0.05 µM
CC(C)C1=C2[C@H]3CC[C@@H]4[C@@]5(C)CC[C@H](OC(=O)C6C[C@@H](C(=O)O)C6(C)C)C(C)(C)[C@@H]5CC[C@@]4(C)[C@]3(C)CC[C@@]2(NC(=O)C(C)(C)NC(=O)c2ncccn2)CC1=O	NL4-3	p24	EC50			MT-4	>0.01 µM

A second listing of 6 rows from above:

SMILES,strain,read by,measure,conditions,mutations,cells,value
CC(C)C1=C2[C@H]3CC[C@@H]4[C@@]5(C)CC[C@H](OC(=O)C6C[C@@H](C(=O)O)C6(C)C)C(C)(C)[C@@H]5CC[C@@]4(C)[C@]3(C)CC[C@@]2(NC(=O)C(C)(C)NC(=O)c2cnccn2)CC1=O,NL4-3,p24,EC50,,,MT-4,<0.005 µM
O=C1CSC(c2c(F)cccc2F)N1Cc1ccco1,IIIB,cytopathic effect,EC50,,,MT-4,2.88 µM
CC(C)CNC(=O)NC(=O)C(C)OC(=O)c1c2c(nc3ccccc13)/C(=C\c1cccc([N+](=O)[O-])c1)CCC2,,luciferase,EC50,pseudotyped,,CEM,>10 µM
CC(C)C1=C2[C@H]3CC[C@@H]4[C@@]5(C)CC[C@H](OC(=O)[C@H]6C[C@@H](C(=O)O)C6(C)C)C(C)(C)[C@@H]5CC[C@@]4(C)[C@]3(C)CC[C@@]2(CC(=O)NCC(C)(C)NC(=O)c2ccc(N3CCN(C)CC3)cc2)CC1=O,92HT599,p24 / ELISA,EC50,,,MT-2,<1 µM
[N-]=[N+]=N[C@H]1C[C@H](n2cc(Br)cnc2=O)O[C@@H]1CO,,,EC50,,,CEM-V + CEM,>94 µM
COc1cccc(OC)c1C1SCC(=O)N1c1cc(C)ccn1,IIIB,cytopathic effect,EC50,,,MT-4,3.33 µM